Record: PubChem BioAssay AID504761 (Drosophila RNAi Screening Center, 2011)

- Test: 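Insect host genes that dengue virus relies on to spread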 (primary screen)
- Cells: D.Mel-2 cells from Drosophila
- Reagent: long dsRNA against Drosophila genes
- Challenge: infection with dengue virus type 2; dose and infection time not stated
- Read-out: 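Per well on two replicate plates, imaging gave the percent of cells positive for viral envelope protein, ranked by infection, and a nuclear count of cells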
- Scale: infection score: higher = more virus-infected cells
- Rule for the call: 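Very low infection ranking in both replicate wells (chance probability at most 0.065), then a retest showing infection dropped 1.5-fold or more at p below 0.05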
- Calls: active = confirmed: knock-down lowers infection; inactive = not picked or not confirmed
The deposit covers about 22,000 reagents; this is an unselected part of those with a known target gene and a result. Of all reagents, 116 (0.52%) were called active. 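Calls depend on retest data that are not deposited; infection was ranked per plate without normalising between plates; the unit of the infection score is not given.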 Not all columns of the deposit are shown. Reagent sequences are not shown. Not given: the amount of reagent, the time to read-out.

Against CG17118 [DRSC02579], the values are infection score, replicate 1 = 1.86; inactive.
With knock-down of CG10514 [DRSC14249] the results were infection score, replicate 1 = 10.8; inactive.
Silencing of CG10514 [DRSC28098] gave: infection score, replicate 1 = 5.58; inactive.
Against CG14377 [DRSC14837], the entry reads infection score, replicate 1 = 2.71; inactive.
Knock-down of CG14377 [DRSC26342] gave: infection score, replicate 1 = 2.42; inactive.
Knock-down of CG1640 [DRSC19750] resulted in: infection score, replicate 1 = 2.78; inactive.
For Prtl99C [DRSC15049], the values are infection score, replicate 1 = 4.66; inactive.
For unk [DRSC17093] the deposit lists infection score, replicate 1 = 4.96; inactive.
After knock-down of unk [DRSC28754] the results were infection score, replicate 1 = 7.44; inactive.

Sorted by “infection score, replicate 1” (lowest first): 3 of the entries above.
CG14377 [DRSC26342] — infection score, replicate 1 = 2.42; outcome = inactive
CG1640 [DRSC19750] — infection score, replicate 1 = 2.78; outcome = inactive
Prtl99C [DRSC15049] — infection score, replicate 1 = 4.66; outcome = inactive

Continued.
After knock-down of ort [DRSC16240] the results were infection score, replicate 1 = 13.9; inactive.
Mccc1 [DRSC15417] scored infection score, replicate 1 = 14.1; inactive.
Knock-down of Mccc1 [DRSC27491] came out at: infection score, replicate 1 = 10.5; inactive.
Knock-down of CG18130 [DRSC19790] came out at: infection score, replicate 1 = 4.76; inactive.
Knock-down of CG18130 [DRSC24767] resulted in: infection score, replicate 1 = 4.15; inactive.
slf [DRSC00583] showed infection score, replicate 1 = 4.66; inactive.
After knock-down of slf [DRSC27361] the results were infection score, replicate 1 = 1.47; inactive.
For Ran [DRSC20364] the deposit lists infection score, replicate 1 = 16.7; inactive.
Against Ran [DRSC28160] the deposit lists infection score, replicate 1 = 11.3; inactive.
Against crp [DRSC03515] the deposit lists infection score, replicate 1 = 52.1; inactive.
MED27 [DRSC12205] gave infection score, replicate 1 = 15.9; inactive.
For CG13312 [DRSC09983], the values are infection score, replicate 1 = 1.26; inactive.
With knock-down of CG13312 [DRSC26729], the record shows infection score, replicate 1 = 2.51; inactive.
